Anti-infective test results gathered from many reports (values: NIAID ChemDB through PubChem).

Common to all: whole-cell or culture tests; agent: Coxsackie virus

Lines come from different laboratories, so protocols vary. ECn is the concentration giving n% inhibition of infection, replication or growth. Two numbers with a dash give a range or band. Blank or dashed fields: not listed here.

compound | measure | strain or isolate | read by | cells | value
CC1(C)[C@@H](CO)CC[C@@]1(C)Cn1cc(I)c(=O)[nH]c1=O | EC50 | TYPE B4 | cytopathic effect | HeLa | >400 µg/mL
Cc1cc(OCCCc2ccc(C(F)F)nn2)cc(C)c1-c1noc(C(F)F)n1 | EC50 | - | cytopathic effect | HeLa | 0.033–0.659 µg/mL
CSc1nsc(-c2ccccn2)c1C#N | EC50 | TYPE B1 | plaque count | HEP-2 | >50 µM
C1CN(CC2CO2)CC[N+]2(C1)CC[N+]1(CCCN(CC3CO3)CC1)CC2 | EC50 | B3 | cytopathic effect | HeLa | >70 µg/mL
CC(Sc1ncnc2c1cnn2COCCO)C(N)=O | EC50 | TYPE B4 | cytopathic effect | HeLa | >400 µg/mL
CC1=CC(=O)N(c2ccccc2)S(=O)(=O)N1COCCO | EC50 | TYPE B4 | - | VERO | >400 µg/mL
N#Cc1cncc([C@@H]2O[C@H](CO)[C@@H](O)[C@@H]2O)c1 | EC50 | TYPE B4 | cytopathic effect | HeLa | ≥100 µg/mL
CC1(CO)CCC(Cn2cnc3c(=O)[nH]cnc32)C1(C)C | EC50 | TYPE B4 | cytopathic effect | VERO | >200 µg/mL
NC(=S)c1cncc([C@H]2O[C@H](CO)[C@@H](O)[C@@H]2O)c1 | EC50 | TYPE B4 | cytopathic effect | HeLa | ≥100 µg/mL
CC1(C)[C@@H](CCO)C[C@H]1n1cnc2c(=O)[nH]c(N)nc21 | EC50 | TYPE B4 | cytopathic effect | VERO | >400 µg/mL
Cc1cc(-c2noc(C(F)(F)F)n2)cc(C)c1OCCCc1ccc(C(C)(F)F)nn1 | EC50 | - | cytopathic effect | HeLa | 0.033–0.659 µg/mL
Cc1ccc(C(=O)CCCCOc2ccc(C3=NC(C)CO3)cc2)s1 | EC50 | TYPE B5 | cytopathic effect | VERO | 21.01 µM
N#C/C(=C(\N)N1CC[N+]2(CC1)CC[N+]1(CCN(/C(N)=C(/C#N)[N+](=O)[O-])CC1)CC2)[N+](=O)[O-] | EC50 | B3 | cytopathic effect | HeLa | >70 µg/mL
Cc1ccc(C(=O)CCCCCCOc2ccc(C3=NCCO3)cc2)s1 | EC50 | TYPE B2 | cytopathic effect | VERO | >26.95 µM
NC(=O)CSc1ncnc2c1cnn2COCC(O)CO | EC50 | TYPE B4 | cytopathic effect | HeLa | >400 µg/mL
Cc1ccc(C(=O)CCCCOc2ccc(C3=NCCO3)cc2)s1 | EC50 | TYPE B5 | cytopathic effect | VERO | 7.28 µM
C=C(N=CC)c1nc(-c2cccc(C)c2)n(C2O[C@H](CO)[C@@H](O)[C@H](O)[C@H]2O)n1 | EC50 | TYPE B4 | cytopathic effect | HeLa | >400 µg/mL
CC1(C)[C@@H](CCO)C[C@H]1n1cnc2c(N)ncnc21 | EC50 | TYPE B4 | cytopathic effect | HeLa | 150 µg/mL
Cc1ccc(C(=O)CCCCOc2ccc(C3=NCC(C)O3)cc2Cl)s1 | EC50 | TYPE B5 | cytopathic effect | VERO | 17.24 µM
CSc1ccc(CCCOc2cc(C)c(-c3noc(C(F)F)n3)c(C)c2)nn1 | EC50 | - | cytopathic effect | HeLa | 0.033–0.659 µg/mL
CS(=O)(=O)c1ccc(Oc2ccc(C(=O)c3ccccc3)cc2)nc1 | EC50 | B4 | cytopathic effect | HeLa | 10 µg/mL
Cc1ccc(C(=O)CCCCOc2ccc(C3=N[C@H](C)CO3)cc2)s1 | EC50 | TYPE B5 | cytopathic effect | VERO | 9.24 µM
NC(=O)c1cncc([C@H]2O[C@H](CO)[C@H](O)[C@@H]2O)c1 | EC50 | TYPE B4 | cytopathic effect | HeLa | ≥100 µg/mL
CC1(CO)CCC(Cn2nnc3c(=O)[nH]cnc32)C1(C)C | EC50 | TYPE B4 | cytopathic effect | VERO | >400 µg/mL
CC(=O)OCCOCN1C=CC(=O)N(COCCOC(C)=O)S1(=O)=O | EC50 | TYPE B4 | - | HeLa | >400 µg/mL
NC(=O)c1cncc([C@H]2O[C@H](CO)[C@@H](O)[C@@H]2O)c1 | EC50 | TYPE B4 | cytopathic effect | VERO | ≥100 µg/mL
Cc1cc(OCCCc2ccc(=O)[nH]n2)cc(C)c1-c1noc(C(F)F)n1 | EC50 | - | cytopathic effect | HeLa | 0.033–0.659 µg/mL
Cc1nc(Cl)c([N+](=O)[O-])c(N2CC[N+]3(CC2)CC[N+]2(CCN(c4nc(C)nc(Cl)c4[N+](=O)[O-])CC2)CC3)n1 | EC50 | B3 | cytopathic effect | HeLa | >70 µg/mL
O=c1ccn([C@@H]2O[C@H](/C=C/C=C(Br)Br)[C@@H](O)[C@H]2O)c(=O)[nH]1 | EC50 | B4 | - | HeLa | ≥200 µM
Cc1ccc(C(=O)CCCCCCOc2ccc(C3=NCC(C)O3)cc2)s1 | EC50 | TYPE B5 | cytopathic effect | VERO | 25.97 µM
CCOC(=O)C1=CN(COCCOC(C)=O)S(=O)(=O)N=C1N | EC50 | TYPE B4 | - | VERO | >400 µg/mL
N#Cc1cncc([C@H]2O[C@H](CO)[C@@H](O)[C@@H]2O)c1 | EC50 | TYPE B4 | cytopathic effect | HeLa | ≥100 µg/mL
CSc1nsc(SC)c1C#N | EC50 | TYPE B1 | plaque count | HEP-2 | >12 µM
CC1(C)[C@@H](CCO)C[C@H]1n1nnc2c(N)ncnc21 | EC50 | TYPE B4 | cytopathic effect | HeLa | >400 µg/mL
CCSc1ccc(Oc2ccc(C(=O)c3ccccc3)cc2)nc1C#N | EC50 | TYPE A21 | cytopathic effect | HeLa | <0.2 µg/mL
CC(=O)OCCOCN1C=C(C#N)C(N)=NS1(=O)=O | EC50 | TYPE B4 | - | VERO | >400 µg/mL
CC1(C)[C@@H](CCO)C[C@H]1n1nnc2c(=O)[nH]cnc21 | EC50 | TYPE B4 | cytopathic effect | VERO | >100 µg/mL
N#Cc1c(-c2ccccc2)s[nH]c1=S | EC50 | TYPE B1 | plaque count | HEP-2 | >60 µM
Nc1nc2c(ccn2[C@@H]2C[C@H](CO)[C@@H](O)[C@H]2O)c(=O)[nH]1 | MIC | A21 | - | - | >100 µg/mL
CCS(=O)(=O)c1ccc(Oc2ccc(C(=O)c3ccccc3)cc2)nc1 | EC50 | TYPE A21 | cytopathic effect | HeLa | 1.3 µg/mL
CC1(CO)CCC(Cn2nnc3c(Cl)ncnc32)C1(C)C | EC50 | TYPE B4 | cytopathic effect | HeLa | >40 µg/mL
CC(=O)OCCOCN1C(=N)/C(=C(\C)O)C(N)=NS1(=O)=O | EC50 | TYPE B4 | - | HeLa | >400 µg/mL
CCC(Sc1ncnc2c1cnn2CCCCO)C(N)=O | EC50 | TYPE B4 | cytopathic effect | VERO | >400 µg/mL
CC1(C)[C@@H](CO)CC[C@@]1(C)Cn1nnc2c(=O)[nH]cnc21 | EC50 | TYPE B4 | cytopathic effect | VERO | >400 µg/mL
CSc1nsc(-c2cccnc2)c1C#N | EC50 | TYPE B1 | plaque count | HEP-2 | >20 µM
CC=NC(=N)c1nc(-c2ccc(OC)cc2)n(Cc2ccccc2)n1 | EC50 | TYPE B4 | cytopathic effect | VERO | >10 µg/mL
NC(=O)CSc1ncnc2c1cnn2CCCCO | EC50 | TYPE B4 | cytopathic effect | HeLa | >400 µg/mL
Cc1cn([C@H]2C/C(=N\O)[C@@H](CO)O2)c(=O)[nH]c1=O | EC50 | - | cytopathic effect | HeLa | >200 µg/mL
Cc1nc(-c2cc(C)c(OCCCc3ccc(C(F)F)o3)c(C)c2)no1 | EC50 | - | cytopathic effect | HeLa | 0.033–0.659 µg/mL
C#C[C@H](O)C1=C[C@@H](n2cnc3c(N)ncnc32)[C@H](O)[C@@H]1O | EC50 | TYPE B4 | cytopathic effect | HeLa | >100 µg/mL
CC1(C)[C@@H](CO)CC[C@@]1(C)Cn1cc(Br)c(=O)[nH]c1=O | EC50 | TYPE B4 | cytopathic effect | VERO | >400 µg/mL
C=C(N=CC)c1nc(-c2ccc(C)cc2)n([C@@H]2O[C@H](CO)[C@@H](O)[C@H]2O)n1 | EC50 | TYPE B4 | cytopathic effect | VERO | >40 µg/mL
O=[N+]([O-])c1c(N2CC[N+]3(CC2)CC[N+]2(CCNCC2)CC3)ncnc1N1CC[N+]2(CC1)CC[N+]1(CCNCC1)CC2 | EC50 | B3 | cytopathic effect | HeLa | >70 µg/mL
CC(=O)OCCOCN1C(C)=CC(N)=[N+](c2ccccc2)S1(=O)=O | EC50 | TYPE B4 | - | HeLa | >400 µg/mL
Cc1cc(-c2noc(C(F)F)n2)cc(C)c1OCCCc1cccnn1 | EC50 | - | cytopathic effect | HeLa | 0.033–0.659 µg/mL
CC[C@H](O)C1=C[C@@H](n2cnc3c(N)ncnc32)[C@H](O)[C@@H]1O | EC50 | TYPE B4 | cytopathic effect | HeLa | >100 µg/mL
Cc1cc(OCCCc2ccc(C(C)F)nn2)ccc1-c1noc(C(F)F)n1 | EC50 | - | cytopathic effect | HeLa | 0.033–0.659 µg/mL
C=C(N=CC)c1nc(-c2ccc(C)cc2)n(C2O[C@H](CO)[C@@H](O)[C@H](O)[C@H]2O)n1 | EC50 | TYPE B4 | cytopathic effect | VERO | >100 µg/mL
CCc1ccc(CCCOc2ccc(-c3noc(C(F)F)n3)cc2)nn1 | EC50 | - | cytopathic effect | HeLa | 0.033–0.659 µg/mL
CC1(C)[C@@H](CO)CC[C@@]1(C)Cn1cnc2c(Cl)ncnc21 | EC50 | TYPE B4 | cytopathic effect | HeLa | >400 µg/mL

A second listing of 5 rows from above:

compound,measure,strain or isolate,read by,cells,value
N#C/C(=C(\N)N1CC[N+]2(CC1)CC[N+]1(CCN(/C(N)=C(/C#N)[N+](=O)[O-])CC1)CC2)[N+](=O)[O-],EC50,B3,cytopathic effect,HeLa,>70 µg/mL
CSc1ccc(CCCOc2cc(C)c(-c3noc(C(F)F)n3)c(C)c2)nn1,EC50,-,cytopathic effect,HeLa,0.033–0.659 µg/mL
CC=NC(=N)c1nc(-c2ccc(OC)cc2)n(Cc2ccccc2)n1,EC50,TYPE B4,cytopathic effect,VERO,>10 µg/mL
CC1(CO)CCC(Cn2cnc3c(=O)[nH]cnc32)C1(C)C,EC50,TYPE B4,cytopathic effect,VERO,>200 µg/mL
Cc1nc(Cl)c([N+](=O)[O-])c(N2CC[N+]3(CC2)CC[N+]2(CCN(c4nc(C)nc(Cl)c4[N+](=O)[O-])CC2)CC3)n1,EC50,B3,cytopathic effect,HeLa,>70 µg/mL